# Measurements from patent US6627772B2, “Preparation of N-[2-(carboxymethoxy) ethyl]-N-(carboxymethyl) glycine” (The Dow Chemical Company, priority 1999, dated 2003).
# System: standardized sludge containing municipal waste treatment plant organisms
# Test: ASTM D2667 semi-continuous activated sludge biodegradability test (loss of chelation followed by copper titration)
# Details: for Time for greater than 80% loss of chelation: ASTM D2667, copper titration value, analysis daily; for Inherent biodegradability (result in words): ASTM D2667 semi-continuous activated sludge test
smiles,measurement,setting,value
"O=C(O)CN(CC(=O)O)CC(=O)O [NTA (std.), nitrilotriacetate, reference compound]",Time for greater than 80% loss of chelation,,3 days
"O=C(O)COCCN(CC(=O)O)CC(=O)O [(IX), N-[2-(carboxymethoxy)ethyl]-N-(carboxymethyl)glycine]",Time for greater than 80% loss of chelation,,30 days
same,Inherent biodegradability (result in words),,inherently biodegradable
same,Inherent biodegradability (result in words),listed as N-[2-(carboxymethoxy)ethyl]-N-(carboxymethyl)glycine,will biodegrade
